Laboratory results from PubChem BioAssay (NCATS).
“And” between values parts separate entries of the source, which are not always exact repeats. Equal values may be shown once. This is a selection; strong and weak results do not stand in their true shares. Records with an inconclusive call do not appear. The source made the active and inactive calls. Unless noted, calls come from the whole dose curve; as a rule, active = well fitted curve in the direction sought with a large enough effect; inconclusive = small, poorly fitted or top-dose-only effect, or another doubt; inactive = no such curve, though single readings can be large; an effect the other way counts as inactive or inconclusive.

How the values were obtained:
[1] = system: Zika virus NS2B-NS3 protease (unlinked complex); experiment: Primary screen GU Rhodamine qHTS for Zika virus inhibitors: Unlinked NS2B-NS3 protease assay (AID 1347159); conditions: Recombinant ZIKV NS2B-NS3 protease, Rhodamine110 substrate fluorescence; at 107 µM (top of the series); note: % is set by controls: 0 for no effect and ±100 for the full control effect; nearly all actives have a fitted effect of over 60% in size
Outline: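 Noncovalent NS2B hydrophilic domain–NS3 protease domain complex (25 nM) preincubated 15 min at room temperature with compounds (up to 114 microM) in 10 mM Tris-HCl pH 8.0, 0.01% Tween 20; 1.5 microM Rhodamine110 substrate added, fluorescence change over 15 min fitted to Hill equation.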

[2] = system: Zika virus NS2B-NS3 protease (linked construct); experiment: Primary screen NINDS Rhodamine qHTS for Zika virus inhibitors (AID 1347160); conditions: purified NS2B-NS3 protease, Rhodamine110 substrate fluorescence; activity change, negative = inhibition: at 57.1 µM (top of the series); note: nearly all actives have a fitted effect of over 55% in size
Outline: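 Purified linked NS2B-NS3 protease (NS2B hydrophilic domain joined to NS3 protease by flexible linker), 25 nM in 10 mM Tris-HCl pH 8.0, 0.01% Tween 20. Compounds titrated, 15 min preincubation at room temperature; 1.5 microM Rhodamine110 substrate, FITC fluorescence change over 15 min.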

[3] = Confirmatory qHTS to identify inhibitors of SARS-CoV-2 cell entry (AID 1645844; calls by dose curve; note: potency is the fitted concentration of half-maximal effect; nearly all actives have a fitted effect of over 45% in size); conditions: SARS-CoV-2 pseudotyped particle cell entry, luciferase
Outline: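 Luminescence from a luciferase reporter, read 48 hr after pseudotyped-particle addition, gives entry signal, normalised to spike-bearing PP wells and bald PP lacking fusion protein wells. Cells are Expi293F stably expressing human ACE2, compound-pretreated 1 hr.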

[4] = Cytotoxicity counterscreen for inhibitors of SARS-CoV-2 cell entry (AID 1645845; calls by dose curve; note: % is set by controls: 0 for no effect and ±100 for the full control effect; nearly all actives have a fitted effect of over 50% in size); conditions: cell viability (SARS-CoV-2 entry assay cells); at 57.1 µM (top of the series)
[5] = VSVG counterscreen qHTS to identify inhibitors of SARS-CoV-2 cell entry (AID 1645847; calls by dose curve; note: potency is the fitted concentration of half-maximal effect; nearly all actives have a fitted effect of over 65% in size); conditions: VSV-G pseudotyped particle entry, luciferase
Outline: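 Expi293F/hACE2 cells, overnight plating; cpd 1 h, 37C/5% CO2; + VSV-G PP (MLV pseudotyping), 48 h; supernatant removed, Bright-Glo luciferase read. Norm: VSV-G PP and bald PP wells.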

[6] = qHTS for Inhibitors of the Functional Ribonucleoprotein Complex (vRNP) of Lassa (LASV) Arenavirus: LASV Primary Screen - GLuc reporter signal (AID 1347082; calls by dose curve; tested in HEK293 reporter line; note: % is set by controls: 0 for no effect and ±100 for the full control effect; nearly all actives have a fitted effect of over 60% in size); conditions: LASV minigenome vRNP, Gaussia luciferase reporter; at 57.5 µM (top of the series) unless noted
[7] = qHTS for Inhibitors of the Functional Ribonucleoprotein Complex (vRNP) of Lassa (LASV) Arenavirus: Viability assay - alamar blue signal for LASV Primary Screen (AID 1347083; calls by dose curve; tested in HEK293 reporter line; note: % is set by controls: 0 for no effect and ±100 for the full control effect; nearly all actives have a fitted effect of over 80% in size); conditions: cell viability, alamar blue fluorescence (LASV minigenome counter-screen); at 57.5 µM (top of the series) unless noted
[8] = qHTS for Inhibitors of the Functional Ribonucleoprotein Complex (vRNP) of Lymphocytic Choriomeningitis Arenaviruses (LCMV): Viability assay - alamar blue signal for LCMV Primary Screen (AID 1347085; calls by dose curve; tested in HEK293 reporter line; note: % is set by controls: 0 for no effect and ±100 for the full control effect; nearly all actives have a fitted effect of over 80% in size); conditions: alamar blue viability counter-screen, LCMV vRNP screen cells; at 57.5 µM (top of the series) unless noted
[9] = target: Nucleoprotein (Lymphocytic choriomeningitis virus (strain Armstrong)) (UniProt P09992); experiment: qHTS for Inhibitors of the Functional Ribonucleoprotein Complex (vRNP) of Lymphocytic Choriomeningitis Arenaviruses (LCMV): LCMV Primary Screen - GLuc reporter signal (AID 1347086; calls by dose curve; note: % is set by controls: 0 for no effect and ±100 for the full control effect; nearly all actives have a fitted effect of over 70% in size); conditions: LCMV minigenome vRNP cell assay, Gaussia luciferase reporter; at 57.5 µM (top of the series) unless noted
[10] = system: Zika virus NS2B-NS3 protease; experiment: Primary screen GU AMC qHTS for Zika virus inhibitors (AID 1347154); conditions: Zika NS2B-NS3 unlinked protease, AMC fluorogenic substrate; at 54.1 µM (top of the series) unless noted;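 note: 0% = no-inhibitor control and -100% = no-enzyme control; nearly all actives have a fitted effect of over 70% in size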
[11] = qHTS assay for measurement of the activity of small molecule inhibitors on Zika virus induced Caspase-3 activity in human iPSC derived neural progenitor cells (hNPCs) (AID 1224857); conditions: hNPCs ZIKV-induced caspase-3/7, Caspase-Glo luminescence, 6 h; at 45.7 µM (top of the series) unless noted; note: % of control where 0% means no effect; nearly all actives have a fitted effect of over 65% in size
[12] = qHTS assay for measurement of the activity of small molecule inhibitors on Zika virus induced Caspase-3 activity in human astrocytoma cells (AID 1224859); conditions: SNB-19 ZIKV-induced caspase-3/7, luminescence, 6 h; at 45.7 µM (top of the series) unless noted;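 note: plate controls were ZIKV-infected untreated cells for no effect and uninfected cells for full effect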
[13] = NS1 protein of Zika virus - qHTS assay to identify small molecule inhibitors in human HEK 293 cells (AID 1347053); conditions: HEK293 ZIKV MR766 infection, NS1 TR-FRET, 24 h; at 46.1 µM (top of the series) unless noted;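 note: plate controls were infected untreated cells for no effect and uninfected cells for full effect; nearly all actives have a fitted effect of over 55% in size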
[14] = Primary qHTS for inhibitors of La Crosse Virus (LACV) - induced cell death in SH-SY5Y cells (AID 1508616); conditions: SH-SY5Y LACV cytopathicity rescue, ATP luminescence, 6 d; at 9.63 µM (top of the series) unless noted;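 note: top concentration of the series differs between compounds; 0% = infected DMSO wells and 100% = uninfected DMSO wells; higher means more rescue of cells from virus-induced death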
Outline: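 Luminescent ATP readout (ATPLite 1step, 5 min room temperature) measured rescue from LACV-induced death after 6 days of infection at 0.01 MOI; normalized to infected DMSO wells and uninfected DMSO wells.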

[15] = target: Pyruvate kinase (Leishmania mexicana) (UniProt Q27686); experiment: qHTS Validation Assay for Inhibitors of Leishmania Mexicana Pyruvate Kinase (AID 945);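 note: 0% = DMSO only neutral control wells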; conditions: purified L. mexicana pyruvate kinase, enzyme activity, E451W mutant enzyme; at 57.5 µM (top of the series)
Outline: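 LmPYK E451W 0.2 nM; 0.5 mM PEP, 0.1 mM ADP, 7 mM MgCl2, 50 mM KCl, imidazole pH 7.2, 0.01% Tween 20, 0.05% BSA; 1 h RT; PKLight luminescence; DMSO-normalized.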

[16] = target: Endonuclease 4 (Escherichia coli (strain K12)) (UniProt P0A6C1); experiment: Counterscreen for APE1 Inhibitors: qHTS Validation Assay for Inhibitors of Endonuclease IV (AID 1708); note: % is set by controls: 0 for no effect and ±100 for the full control effect; conditions: E. coli endonuclease IV, DNA cleavage fluorescence; at 57.1 µM (top of the series)
Outline: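 Enzymatic AP-site incision assay using a double-stranded THF substrate labelled with TAMRA and BHQ-2; released fluorescence signals activity. Enzyme 2 nM, substrate 50 nM, 15 min compound preincubation.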

[17] = qHTS for differential inhibitors of proliferation of Plasmodium falciparum line D10 (AID 1877); conditions: at 28.7 µM (top of the series);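 note: parasites grown with compound for 72 h before DNA staining; plate controls were vehicle wells for no effect and reference inhibitor wells for full effect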
[18] = qHTS for differential inhibitors of proliferation of Plasmodium falciparum line Dd2 (AID 1882); conditions: Plasmodium falciparum Dd2 proliferation inhibition; note: potency is the fitted concentration of half-maximal effect; nearly all actives have a fitted effect of over 65% in size
Outline: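 SYBR Green I DNA fluorescence read-out, ex 485/em 535 nm. Signals were normalized to 0.29 uM artemisinin and DMSO wells, then corrected using vehicle-only plates flanking each stack. Parasite growth ran 72 h in erythrocytes before lysis.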

[19] = Validation screen for inhibitors of Lassa infection (AID 463096; calls by dose curve; note: % is set by controls: 0 for no effect and ±100 for the full control effect); conditions: Lassa virus infection, cell-based; at 46.1 µM (top of the series)
[20] = target: DNA polymerase III PolC-type (Bacillus subtilis (strain 168)) (UniProt P13267); experiment: qHTS Validation Assay for the Inhibitors of DNA Replication in Gram-Positive Bacteria (AID 485295); conditions: Gram-positive bacterial DNA replication assay; at 57.1 µM (top of the series);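 note: reconstituted holoenzyme with PolC plus beta clamp SSB and primase; PicoGreen fluorescence of double-stranded DNA made on primed circular M13 template; 0% = DMSO wells and -100% = EDTA-quenched background wells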
Outline: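 PicoGreen fluorescence (ex 480–485/em 535–540 nm) reports dsDNA synthesized on ssM13Gori template with dNTPs/NTPs. Enzyme: holoenzyme rebuilt from purified PolC, beta subunit, SSB and primase. Compound preincubated before substrate addition; RT throughout.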

[21] = target: Tumor susceptibility gene 101 protein (Homo sapiens) (UniProt Q99816); experiment: qHTS Validation Assay for Iinhibitors of HIV-1 Budding by Blocking the Interaction of PTAP/TSG101 (AID 485342; calls by dose curve; note: 0% is about no effect); conditions: TSG101-PTAP binding, fluorescence polarization, 4-point titration; at 115 µM (top of the series)
Outline: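 FP read-out: FITC-PTAP peptide, 50 nM final, binding Tsg101 binding domain, 10 uM final; 20 min r.t.; 10 mM HEPES pH 7.5, 0.15 M NaCl, 0.01% Tween 20, 3 mM EDTA, 0.1 mM TCEP.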

[22] = Quantitative high throughput screen for delayed death inhibitors of the malarial parasite plastid, 96 hour incubation (AID 488745); conditions: Plasmodium falciparum growth; at 28.7 µM (top of the series); note: % is set by controls: 0 for no effect and ±100 for the full control effect; nearly all actives have a fitted effect of over 70% in size
Outline: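 P. falciparum carrying an integrated firefly luciferase reporter, grown in erythrocytes (2% hematocrit, 0.1% parasitemia final) in RPMI 1640/0.5% Albumax, was exposed to compound for 96 h (two generations) at 37 C, 5% CO2. Luminescence decrease indicated growth inhibition.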

[23] = Quantitative high throughput screen for delayed death inhibitors of the malarial parasite plastid, 48 hour incubation (AID 488752); conditions: Plasmodium falciparum growth; at 28.7 µM (top of the series); note: % is set by controls: 0 for no effect and ±100 for the full control effect; nearly all actives have a fitted effect of over 65% in size
Outline: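 Erythrocytes infected with P. falciparum carrying an integrated firefly luciferase reporter (2% hematocrit, 0.1% parasitemia final) were exposed to compounds in RPMI 1640/0.5% Albumax for 48 h at 37 C, 5% CO2. Growth inhibition was scored as reduced luminescence.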

[24] = target: Phosphoglycerate kinase, glycosomal (Trypanosoma brucei brucei) (UniProt P07378); experiment: qHTS Validation Assay to Find Inhibitors of Phosphoglycerate Kinase (AID 504547); conditions: enzymatic PGK inhibition, coupled luminescence read-out; at 57.5 µM (top of the series);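 note: control wells lack PGK and mark full inhibition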
Outline: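 Inhibition of the enzyme is judged by a Kinase-Glo Plus luminescent signal following a one-hour incubation at room temperature. Because 1,3-BPG is unstable, it is made in situ by GAPDH at 100nM final; no-PGK wells define the baseline.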

[25] = target: phosphoglycerate mutase (Leishmania major) (UniProt Q4Q090); experiment: qHTS Validation Assay to Find Inhibitors of Phosphoglycerate Mutase (AID 504548); conditions: biochemical enzyme activity; at 57.5 µM (top of the series); note: % is set by controls: 0 for no effect and ±100 for the full control effect
Outline: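 Lm PGAM 1.25nM final; 100 mM TEA pH 7.6, 5 mM MgCl2, 0.01% Tween-20; 45 min RT; Kinase-GloPlus, 10 min; end-point luminescence. Enzyme-free wells as negative controls.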

[26] = qHTS of Trypanosoma Brucei Inhibitors: LOPAC Validation (AID 624147); conditions: Trypanosoma brucei growth inhibition; at 57.5 µM (top of the series); note: 0% is about no effect
Outline: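 TbPYK + substrate in 50 mM TEA pH 7.2, 100 mM KCl, 10 mM MgCl2, 0.05% BSA, 0.01% Tween-20; cpd pinned; ADP 130 uM final; 45 min RT; Kinase-Glo Plus 10 min; luminescence endpoint.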

[27] = system: Zika virus NS2B-NS3 protease (unlinked); experiment: Optimization of GU AMC qHTS for Zika virus inhibitors: Unlinked NS2B-NS3 protease assay (AID 1347151); conditions: recombinant ZIKV NS2B-NS3 protease, fluorogenic AMC substrate; at 52.5 µM (top of the series);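 note: 0% = no-inhibitor control and -100% = no-enzyme control; nearly all actives have a fitted effect of over 80% in size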
Outline: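 Fluorescence read-out (340 nm ex / 450 nm em) of AMC peptide cleavage, taken immediately and after 15 min at room temperature (~20% conversion). Enzyme was the unlinked NS2B–NS3 complex at 25 nM in Tris pH 8.0 buffer.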

CN(C)C1(c2ccccc2)CCC2(CC1)OCCc1c2[nH]c2ccc(F)cc12 (configuration not stated)
inactive: activity change, negative = inhibition [1] 48.6% | outcome [2] | activity change, negative = cytotoxicity [4] -20.4%
active: Potency [3] 4.29 µM | Potency [5] 3.83 µM

CC(=O)C1=CCCC2CCC1N2 (configuration not stated)
inactive: activity change, negative = inhibition [6] -6.82% | activity change, negative = reduced viability [7] 12.5% | activity change, negative = lower viability [8] 23.7% | activity change, negative = inhibition [9] -0.821% | activity change, negative = inhibition [10] 1.28%

CN(C(=O)Cc1ccc(Cl)c(Cl)c1)[C@H]1CC[C@@]2(CCCO2)C[C@@H]1N1CCCC1
inactive: activity change, negative = inhibition [11] 11.7% | activity change, negative = inhibition [12] -6.31% | activity change, negative = inhibition [13] 4.02% | activity change, negative = inhibition [6] 1.47% | activity change, negative = reduced viability [7] 16.4% | activity change, negative = lower viability [8] 6.91% | activity change, negative = inhibition [9] 0.32% | activity change, negative = inhibition [10] -4% | activity change [14] 4.81% [at 4.29 µM]

CN(CCCl)Cc1cc(Cl)c(NC2=NCCN2)c(Cl)c1
inactive: activity change, negative = inhibition [15] -6.7% | activity change, negative = inhibition [16] -8.03% | activity change, negative = inhibition [17] -13.7% | activity change, negative = inhibition [19] -30.3% | activity change, negative = inhibition [20] 6.11% | fluorescence change [21] 3.85% | activity change, negative = inhibition [22] 6.68% | activity change, negative = inhibition [23] -1.49% | activity, negative = inhibition [24] 9.38% | activity change, negative = inhibition [25] -1.6% | activity change, negative = inhibition [26] 4.56% | activity change, negative = inhibition [12] 5.19% | activity change, negative = inhibition [6] 2.03% | activity change, negative = reduced viability [7] 0.194% | activity change, negative = lower viability [8] -0.958% | activity change, negative = inhibition [9] 3.14% | activity change, negative = inhibition [10] 14.2%
active: Potency [18] 11.2 µM

CN(C(=O)Cc1ccc(Cl)c(Cl)c1)[C@H]1CCCC[C@@H]1N1CCCC1
inactive: activity change, negative = inhibition [16] -3.05% and 17% | activity change, negative = inhibition [20] -0.279% and -1.72% | fluorescence change [21] -2.35% and -5.6% | activity change, negative = inhibition [23] -22.8% and -25.7% | activity, negative = inhibition [24] 7.05% and 6.93% | activity change, negative = inhibition [26] 9.14% and -3.71% | activity change, negative = inhibition [11] -6.44% and 1.14% | activity change, negative = inhibition [12] 8.79% and -1.22% | activity change, negative = inhibition [13] 3.47% and -4.03% | activity change, negative = inhibition [6] 8.43% and 10.6% | activity change, negative = reduced viability [7] 0.517% and 5.12% | activity change, negative = lower viability [8] 2.3% and -4.13% | activity change, negative = inhibition [9] -1.02% and -3.26% | activity change, negative = inhibition [27] -0.321% and 2.61% | activity change, negative = inhibition [10] 8.55% [middle of 6 runs]
